Reference: US20240109955A1 (published 2024)

B1: MX830 (bispecific antibody)
chain: QTVVTQEPSFSVSPGGTVTLTCGLSSGSVSTAYFPSWYQQTPGQAPRTLIYGTNTRSSGVPDRFSGSILGNKAALTITGAQADDESDYYCVLYMGRGIVVFGGGTKLTVLGGSSGEIVLTQSPGTLSLSPGERATLSCRASQSVSSSYLAWYQQKPGQAPRLLIYSASSRATGIPDRFSGSGSGTDFTLTISRLEPEDFAVYFCQQYGGLTGWTFGQGTKVEIKGGGGSGGSGSGGGGSASGSGQMQLVQSGPEVKKPGTSVKVSCKASGFTFTSSAVQWVRQRQRLEWIGWIVVGSGNTNYAQKFQERVTITRDMSTSTAYMELSSLRSEDTAVYYCAAPNCSNVVCYDGFDIWGQGTMVTVSSGGSSGQVQLVESGGGVVQPGRSLRLSCAASGFTLSSYGMHWVRQAPGKGLEWVAVISYDGSNKYYVDSVKGRFTISRDNSKNTLYLQMNSLRAEDTAVYYCRWAYWELLPDYYYGMDVWGQGTTVTVSSASGGSGDKTHTCPPCPAPELLGGPSVFLFPPKPKDTLMISRTPEVTCVVVDVSHEDPEVKFNWYVDGVEVHNAKTKPREEQYNSYVVSVLTVLHQDWLNGKEYKCKVSNKALPAPIEKTISKAKGQPREPQVYTLPPSRDELTKNQVSLTCLVKGFYPSDIAVEWESNGQPENNYKTTPPVLDSDGSFFKKLTVDKSRWQQGNVFSCSVLHEALHSHYTQKSLSLSPG
B2: MX837 (other)
chain 1: QTVVTQEPSFSVSPGGTVTLTCGLSSGSVSTAYFPSWYQQTPGQAPRTLIYGTNTRSSGVPDRFSGSILGNKAALTITGAQADDESDYYCVLYMGRGIVVFGGGTKLTVLGGSSGEIVLTQSPGTLSLSPGERATLSCRASQSVSSSYLAWYQQKPGQAPRLLIYSASSRATGIPDRFSGSGSGTDFTLTISRLEPEDFAVYFCQQYVGLTGWTFGQGTKVEIKGGGGSGGSGSGGGGSASGSGQMQLVQSGPEVKKPGTSVKVSCKASGFTFTSSAVQWVRQRQRLEWIGWIVVGSGNTNYAQKFQERVTITRDMSTSTAYMELSSLRSEDTAVYYCAAPNCSNVVCYDGFDIWGQGTMVTVSSGGSSGQVQLVESGGGVVQPGRSLRLSCAASGFTLSSYGMHWVRQAPGKGLEWVAVISYDGSNKYYVDSVKGRFTISRDNSKNTLYLQMNSLRAEDTAVYYCRWAYWELLPDYYYGMDVWGQGTTVTVSSASGGSGDKTHTCPPCPAPELLGGPSVFLFPPKPKDTLMISRTPEVTCVVVDVSHEDPEVKFNWYVDGVEVHNAKTKPREEQYNSYVVSVLTVLHQDWLNGKEYKCKVSNKALPAPIEKTISKAKGQPREPQVYTLPPCRDELTKNQVSLWCLVKGFYPSDIAVEWESNGQPENNYKTTPPVLDSDGSFFKKLTVDKSRWQQGNVFSCSVLHEALHSHYTQKSLSLSPG
chain 2: DIQMTQSPSSVSASVGDRVIITCRASQGISSWLAWYQQKPGKAPKVLIYDASSLQSGVPSRFSGSGYGTDFTLTISSLQPEDSATYYCQQAKSFPITFGQGTRLEIKGGSSGEIVLTQSPGTLSLSPGERATLSCRASQSVSSSYLAWYQQKPGQAPRLLIYSASSRATGIPDRFSGSGSGTDFTLTISRLEPEDFAVYFCQQYVGLTGWTFGQGTKVEIKGGGGSGGSGSGGGGSASGSGQMQLVQSGPEVKKPGTSVKVSCKASGFTFTSSAVQWVRQRQRLEWIGWIVVGSGNTNYAQKFQERVTITRDMSTSTAYMELSSLRSEDTAVYYCAAPNCSNVVCYDGFDIWGQGTMVTVSSGGSSGQVQLVESGGGVVQPGRSLRLSCAASGFTFSSYAFHWVRQAPGKGLEWVAVISYDGSNQYYADSVKGRFTISRDNSKNTLYLQMNSLRADDTAVYYCARDLAIAVAGTWHYYNGMDVWGQGTTVTVSSASGGSGDKTHTCPPCPAPELLGGPSVFLFPPKPKDTLMISRTPEVTCVVVDVSHEDPEVKFNWYVDGVEVHNAKTKPREEQYNSYVVSVLTVLHQDWLNGKEYKCKVSNKALPAPIEKTISKAKGQPREPQVCTLPPSRDELTKNQVSLSCAVKGFYPSDIAVEWESNGQPENNYKTTPPVLDSDGSFFLVSKLTVDKSRWQQGNVFSCSVLHEALHSHYTQKSLSLSPG
B3: MX834 (other)
chain 1: QTVVTQEPSFSVSPGGTVTLTCGLSSGSVSTAYFPSWYQQTPGQAPRTLIYGTNTRSSGVPDRFSGSILGNKAALTITGAQADDESDYYCVLYMGRGIVVFGGGTKLTVLGGSSGEIVLTQSPGTLSLSPGERATLSCRASQSVSSSYLAWYQQKPGQAPRLLIYSASSRATGIPDRFSGSGSGTDFTLTISRLEPEDFAVYFCQQYVGLTGWTFGQGTKVEIKGGGGSGGSGSGGGGSASGSGQMQLVQSGPEVKKPGTSVKVSCKASGFTFTSSAVQWVRQRQRLEWIGWIVVGSGNTNYAQKFQERVTITRDMSTSTAYMELSSLRSEDTAVYYCAAPNCSNVVCYDGFDIWGQGTMVTVSSGGSSGQVQLVESGGGVVQPGRSLRLSCAASGFTLSSYGMHWVRQAPGKGLEWVAVISYDGSNKYYVDSVKGRFTISRDNSKNTLYLQMNSLRAEDTAVYYCRWAYWELLPDYYYGMDVWGQGTTVTVSSASGGSGDKTHTCPPCPAPELLGGPSVFLFPPKPKDTLMISRTPEVTCVVVDVSHEDPEVKFNWYVDGVEVHNAKTKPREEQYNSYVVSVLTVLHQDWLNGKEYKCKVSNKALPAPIEKTISKAKGQPREPQVYTLPPCRDELTKNQVSLWCLVKGFYPSDIAVEWESNGQPENNYKTTPPVLDSDGSFFKKLTVDKSRWQQGNVFSCSVLHEALHSHYTQKSLSLSPG
chain 2: QTVVTQEPSFSVSPGGTVTLTCGLSSGSVSTAYFPSWYQQTPGQAPRTLIYGTNTRSSGVPDRFSGSILGNKAALTITGAQADDESDYYCVLYMGRGIVVFGGGTKLTVLGGSSGEIVLTQSPGTLSLSPGERATLSCRASQSVSSSYLAWYQQKPGQAPRLLIYSASSRATGIPDRFSGSGSGTDFTLTISRLEPEDFAVYFCQQYVGLTGWTFGQGTKVEIKGGGGSGGSGSGGGGSASGSGQMQLVQSGPEVKKPGTSVKVSCKASGFTFTSSAVQWVRQRQRLEWIGWIVVGSGNTNYAQKFQERVTITRDMSTSTAYMELSSLRSEDTAVYYCAAPNCSNVVCYDGFDIWGQGTMVTVSSGGSSGQVQLVESGGGVVQPGRSLRLSCAASGFTLSSYGMHWVRQAPGKGLEWVAVISYDGSNKYYVDSVKGRFTISRDNSKNTLYLQMNSLRAEDTAVYYCRWAYWELLPDYYYGMDVWGQGTTVTVSSASGGSGDKTHTCPPCPAPELLGGPSVFLFPPKPKDTLMISRTPEVTCVVVDVSHEDPEVKFNWYVDGVEVHNAKTKPREEQYNSYVVSVLTVLHQDWLNGKEYKCKVSNKALPAPIEKTISKAKGQPREPQVYTLPPCRDELTKNQVSLWCLVKGFYPSDIAVEWESNGQPENNYKTTPPVLDSDGSFFKKLTVDKSRWQQGNVFSCSVLHEALHSHYTQKSLSLSPG
B4: MX831 (bispecific antibody)
chain: DIQMTQSPSSVSASVGDRVIITCRASQGISSWLAWYQQKPGKAPKVLIYDASSLQSGVPSRFSGSGYGTDFTLTISSLQPEDSATYYCQQAKSFPITFGQGTRLEIKGGSSGEIVLTQSPGTLSLSPGERATLSCRASQSVSSSYLAWYQQKPGQAPRLLIYSASSRATGIPDRFSGSGSGTDFTLTISRLEPEDFAVYFCQQYGGLTGWTFGQGTKVEIKGGGGSGGSGSGGGGSASGSGQMQLVQSGPEVKKPGTSVKVSCKASGFTFTSSAVQWVRQRQRLEWIGWIVVGSGNTNYAQKFQERVTITRDMSTSTAYMELSSLRSEDTAVYYCAAPNCSNVVCYDGFDIWGQGTMVTVSSGGSSGQVQLVESGGGVVQPGRSLRLSCAASGFTFSSYAFHWVRQAPGKGLEWVAVISYDGSNQYYADSVKGRFTISRDNSKNTLYLQMNSLRADDTAVYYCARDLAIAVAGTWHYYNGMDVWGQGTTVTVSSASGGSGDKTHTCPPCPAPELLGGPSVFLFPPKPKDTLMISRTPEVTCVVVDVSHEDPEVKFNWYVDGVEVHNAKTKPREEQYNSYVVSVLTVLHQDWLNGKEYKCKVSNKALPAPIEKTISKAKGQPREPQVYTLPPSRDELTKNQVSLTCLVKGFYPSDIAVEWESNGQPENNYKTTPPVLDSDGSFFKKLTVDKSRWQQGNVFSCSVLHEALHSHYTQKSLSLSPG

How the values were obtained:
Assay in all cases: cell-based or functional assay
[1] = target: SARS-CoV-2 spike protein, Omicron variant (B.1.1.529) (SARS-CoV-2, UniProt P0DTC2 14-1273)
[2] = target: SARS-CoV-2 spike protein, Omicron sublineage BA.1.1 (R346K) (SARS-CoV-2, UniProt P0DTC2 14-1273)
[3] = target: SARS-CoV-2 spike (S) protein, Omicron sublineage BA.1.1 (R346K) (SARS-CoV-2, UniProt P0DTC2 14-1273)
[4] = target: SARS-CoV-2 spike (S) protein, Omicron variant B.1.1.529 (SARS-CoV-2, UniProt P0DTC2 14-1273)

Binder | IC50, pseudovirus neutralization [1] [nM] | IC80, pseudovirus neutralization [1] [nM] | IC50, pseudovirus neutralization [2] [nM] | IC80, pseudovirus neutralization [2] [nM] | IC50, pseudovirus neutralization [3] [nM] | IC80, pseudovirus neutralization [3] [nM] | IC50, pseudovirus neutralization [4] [nM] | IC80, pseudovirus neutralization [4] [nM]
B1 | 11 | 23.5 | 10.4 | 11.5 |  |  |  | 
B2 |  |  |  |  | 9.72 | 11.4 | 2.23 | 4.45
B3 |  |  |  |  | 1.6 | 3.92 | 1.4 | 6.58
B4 | 75.7 | 132 | 17.2 | 50 |  |  |  | 
